From BindingDB's records for doi:10.1074/jbc.M113.502971 (Hebrew University of Jerusalem, 2013)

Amino acid sequences for entries named in this document (tags omitted).
UniProt Q01827, whole entry: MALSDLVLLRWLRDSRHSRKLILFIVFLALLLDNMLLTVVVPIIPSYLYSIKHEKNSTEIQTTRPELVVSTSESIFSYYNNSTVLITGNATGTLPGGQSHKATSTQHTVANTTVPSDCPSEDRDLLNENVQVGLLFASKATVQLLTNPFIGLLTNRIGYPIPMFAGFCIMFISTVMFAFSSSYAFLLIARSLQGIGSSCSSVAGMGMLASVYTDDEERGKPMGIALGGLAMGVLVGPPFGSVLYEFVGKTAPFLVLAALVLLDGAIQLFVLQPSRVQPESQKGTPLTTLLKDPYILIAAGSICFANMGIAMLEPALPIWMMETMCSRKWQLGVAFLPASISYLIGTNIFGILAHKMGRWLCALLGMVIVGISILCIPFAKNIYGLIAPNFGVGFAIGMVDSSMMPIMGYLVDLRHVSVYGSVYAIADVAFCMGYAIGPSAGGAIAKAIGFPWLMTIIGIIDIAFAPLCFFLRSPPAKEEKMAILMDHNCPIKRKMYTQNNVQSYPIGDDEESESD
UniProt Q01827, whole entry G308P: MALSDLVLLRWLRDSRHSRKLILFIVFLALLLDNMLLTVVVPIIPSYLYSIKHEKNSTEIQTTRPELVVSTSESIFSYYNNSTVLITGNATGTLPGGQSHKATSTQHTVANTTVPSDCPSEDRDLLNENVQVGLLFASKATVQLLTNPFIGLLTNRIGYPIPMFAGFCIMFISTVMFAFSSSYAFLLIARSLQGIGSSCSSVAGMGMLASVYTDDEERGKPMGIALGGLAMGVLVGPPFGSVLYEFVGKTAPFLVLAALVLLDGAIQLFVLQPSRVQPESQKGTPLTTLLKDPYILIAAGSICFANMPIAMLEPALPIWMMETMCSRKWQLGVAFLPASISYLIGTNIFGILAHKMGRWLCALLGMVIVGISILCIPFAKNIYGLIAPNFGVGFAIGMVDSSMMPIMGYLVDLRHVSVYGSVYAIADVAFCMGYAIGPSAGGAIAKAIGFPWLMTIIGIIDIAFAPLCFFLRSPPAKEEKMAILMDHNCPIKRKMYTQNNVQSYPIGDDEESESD
UniProt Q01827, whole entry V41I: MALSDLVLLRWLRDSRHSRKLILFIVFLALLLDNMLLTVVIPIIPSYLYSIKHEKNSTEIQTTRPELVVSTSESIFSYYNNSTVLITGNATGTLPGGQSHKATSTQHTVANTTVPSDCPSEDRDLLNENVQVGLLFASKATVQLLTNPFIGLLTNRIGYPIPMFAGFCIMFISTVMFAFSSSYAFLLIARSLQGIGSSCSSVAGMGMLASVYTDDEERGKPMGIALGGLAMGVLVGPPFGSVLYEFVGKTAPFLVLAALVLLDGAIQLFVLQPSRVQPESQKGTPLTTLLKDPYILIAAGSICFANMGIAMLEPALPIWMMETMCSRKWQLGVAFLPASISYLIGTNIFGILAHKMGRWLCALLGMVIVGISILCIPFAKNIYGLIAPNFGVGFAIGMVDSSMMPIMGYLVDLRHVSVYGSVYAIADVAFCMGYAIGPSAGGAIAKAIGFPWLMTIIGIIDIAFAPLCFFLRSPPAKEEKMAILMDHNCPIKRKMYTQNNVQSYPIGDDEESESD
UniProt Q01827, whole entry V132A: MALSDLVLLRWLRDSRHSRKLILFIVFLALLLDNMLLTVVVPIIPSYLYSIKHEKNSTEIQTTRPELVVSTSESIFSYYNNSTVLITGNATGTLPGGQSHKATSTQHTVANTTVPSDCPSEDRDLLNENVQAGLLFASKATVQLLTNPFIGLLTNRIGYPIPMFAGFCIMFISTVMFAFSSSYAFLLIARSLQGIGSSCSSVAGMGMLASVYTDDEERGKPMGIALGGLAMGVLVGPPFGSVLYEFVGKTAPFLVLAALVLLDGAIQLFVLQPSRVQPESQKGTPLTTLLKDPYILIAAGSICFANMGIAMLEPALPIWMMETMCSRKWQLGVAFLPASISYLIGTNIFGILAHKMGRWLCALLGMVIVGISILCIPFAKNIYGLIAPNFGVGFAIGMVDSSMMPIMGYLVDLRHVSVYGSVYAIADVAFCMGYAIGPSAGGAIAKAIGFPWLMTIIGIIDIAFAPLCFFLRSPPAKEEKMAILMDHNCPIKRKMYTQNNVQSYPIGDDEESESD
UniProt Q01827, whole entry P314T: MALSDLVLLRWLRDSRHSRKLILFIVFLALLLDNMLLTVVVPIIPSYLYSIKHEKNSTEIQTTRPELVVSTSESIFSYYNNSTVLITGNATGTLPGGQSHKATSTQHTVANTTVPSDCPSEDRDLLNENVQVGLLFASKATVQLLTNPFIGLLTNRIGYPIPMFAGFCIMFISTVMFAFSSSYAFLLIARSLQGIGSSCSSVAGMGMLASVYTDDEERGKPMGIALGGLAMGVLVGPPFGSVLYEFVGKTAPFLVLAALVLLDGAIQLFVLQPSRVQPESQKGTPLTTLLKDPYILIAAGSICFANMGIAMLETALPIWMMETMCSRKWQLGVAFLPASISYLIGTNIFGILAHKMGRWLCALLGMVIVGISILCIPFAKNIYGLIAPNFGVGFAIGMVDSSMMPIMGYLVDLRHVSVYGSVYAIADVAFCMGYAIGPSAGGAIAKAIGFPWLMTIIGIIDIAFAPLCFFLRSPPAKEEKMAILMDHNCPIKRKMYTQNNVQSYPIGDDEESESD
UniProt Q01827, whole entry P314L: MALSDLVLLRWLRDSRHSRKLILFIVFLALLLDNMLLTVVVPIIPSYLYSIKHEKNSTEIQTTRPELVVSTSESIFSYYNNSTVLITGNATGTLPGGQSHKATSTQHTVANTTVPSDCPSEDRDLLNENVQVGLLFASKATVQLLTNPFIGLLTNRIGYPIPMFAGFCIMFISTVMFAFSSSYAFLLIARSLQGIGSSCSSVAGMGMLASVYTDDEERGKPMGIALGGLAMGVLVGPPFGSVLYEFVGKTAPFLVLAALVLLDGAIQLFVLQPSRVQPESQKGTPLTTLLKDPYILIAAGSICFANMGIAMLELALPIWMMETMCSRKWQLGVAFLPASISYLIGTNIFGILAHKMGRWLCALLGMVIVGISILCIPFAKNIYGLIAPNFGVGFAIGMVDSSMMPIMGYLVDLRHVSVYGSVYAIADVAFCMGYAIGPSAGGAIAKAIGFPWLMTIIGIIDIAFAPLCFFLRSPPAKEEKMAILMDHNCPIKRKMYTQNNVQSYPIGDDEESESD
UniProt Q01827, whole entry V41A: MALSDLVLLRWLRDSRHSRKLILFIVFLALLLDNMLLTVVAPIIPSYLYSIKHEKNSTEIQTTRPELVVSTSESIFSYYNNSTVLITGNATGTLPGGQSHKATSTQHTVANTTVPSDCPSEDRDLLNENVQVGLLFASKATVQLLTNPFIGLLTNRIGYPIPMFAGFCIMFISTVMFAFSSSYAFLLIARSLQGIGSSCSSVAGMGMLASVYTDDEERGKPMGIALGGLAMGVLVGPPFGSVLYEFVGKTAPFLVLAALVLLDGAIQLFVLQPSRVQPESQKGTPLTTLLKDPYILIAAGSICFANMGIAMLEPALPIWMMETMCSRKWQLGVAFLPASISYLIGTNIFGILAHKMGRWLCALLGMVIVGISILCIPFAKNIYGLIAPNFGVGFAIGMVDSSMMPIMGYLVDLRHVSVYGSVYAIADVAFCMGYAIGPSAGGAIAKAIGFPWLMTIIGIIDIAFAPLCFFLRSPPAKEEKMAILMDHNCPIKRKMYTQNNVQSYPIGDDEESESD
UniProt Q01827, whole entry G308A: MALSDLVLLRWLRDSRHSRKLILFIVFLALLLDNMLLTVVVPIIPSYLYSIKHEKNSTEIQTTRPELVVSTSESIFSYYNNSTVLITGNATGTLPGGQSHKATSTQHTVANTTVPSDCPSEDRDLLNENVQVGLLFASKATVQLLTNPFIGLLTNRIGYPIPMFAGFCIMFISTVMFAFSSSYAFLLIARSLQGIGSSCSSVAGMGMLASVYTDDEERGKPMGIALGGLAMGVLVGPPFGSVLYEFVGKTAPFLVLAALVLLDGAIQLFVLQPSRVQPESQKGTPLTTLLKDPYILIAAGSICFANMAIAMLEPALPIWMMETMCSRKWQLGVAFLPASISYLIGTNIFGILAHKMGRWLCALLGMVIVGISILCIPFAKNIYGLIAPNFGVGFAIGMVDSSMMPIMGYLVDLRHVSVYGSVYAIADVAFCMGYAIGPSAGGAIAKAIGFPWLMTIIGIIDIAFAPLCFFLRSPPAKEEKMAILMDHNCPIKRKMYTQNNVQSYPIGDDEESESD
UniProt Q01827, whole entry V132G: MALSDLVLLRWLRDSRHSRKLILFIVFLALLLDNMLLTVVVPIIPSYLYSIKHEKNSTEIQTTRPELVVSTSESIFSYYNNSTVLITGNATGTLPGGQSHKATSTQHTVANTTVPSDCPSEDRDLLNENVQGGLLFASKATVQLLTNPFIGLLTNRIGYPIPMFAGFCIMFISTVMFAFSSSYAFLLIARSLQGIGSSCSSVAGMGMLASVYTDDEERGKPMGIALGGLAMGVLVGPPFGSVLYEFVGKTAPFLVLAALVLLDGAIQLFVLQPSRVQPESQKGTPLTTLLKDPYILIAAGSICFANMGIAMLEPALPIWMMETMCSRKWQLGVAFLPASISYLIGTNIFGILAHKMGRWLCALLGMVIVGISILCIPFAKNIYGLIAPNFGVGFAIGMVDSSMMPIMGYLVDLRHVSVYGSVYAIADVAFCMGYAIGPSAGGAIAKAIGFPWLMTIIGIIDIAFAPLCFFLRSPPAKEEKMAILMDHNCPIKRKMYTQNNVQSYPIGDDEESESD
UniProt Q01827, whole entry P314G: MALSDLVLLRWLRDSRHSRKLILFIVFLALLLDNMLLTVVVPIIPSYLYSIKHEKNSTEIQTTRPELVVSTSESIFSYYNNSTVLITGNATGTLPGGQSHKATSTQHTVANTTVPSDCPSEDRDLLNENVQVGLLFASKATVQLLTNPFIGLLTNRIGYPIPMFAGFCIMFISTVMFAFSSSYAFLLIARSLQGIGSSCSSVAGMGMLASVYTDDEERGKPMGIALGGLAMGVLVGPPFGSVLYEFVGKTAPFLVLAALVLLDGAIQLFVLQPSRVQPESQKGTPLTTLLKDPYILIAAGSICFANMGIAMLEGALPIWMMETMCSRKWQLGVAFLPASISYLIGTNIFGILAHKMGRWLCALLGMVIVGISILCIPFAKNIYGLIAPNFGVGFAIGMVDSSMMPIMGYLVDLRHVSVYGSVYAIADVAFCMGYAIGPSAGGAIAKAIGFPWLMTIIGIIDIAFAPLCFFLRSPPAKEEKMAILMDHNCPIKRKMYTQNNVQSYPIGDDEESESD

Columns and labels:
Assay in all cases: [3H]Serotonin Uptake Assay
Conditions in all cases: pH 8.5
[1] = target: Synaptic vesicular amine transporter (Rattus norvegicus, UniProt Q01827)
[2] = target: Synaptic vesicular amine transporter [G308P] (Rat, UniProt Q01827, G308P)
[3] = target: Synaptic vesicular amine transporter [V41I] (Rat, UniProt Q01827, V41I)
[4] = target: Synaptic vesicular amine transporter [V132A] (Rat, UniProt Q01827, V132A)
[5] = target: Synaptic vesicular amine transporter [P314T] (Rat, UniProt Q01827, P314T)
[6] = target: Synaptic vesicular amine transporter [P314L] (Rat, UniProt Q01827, P314L)
[7] = target: Synaptic vesicular amine transporter [V41A] (Rat, UniProt Q01827, V41A)
[8] = target: Synaptic vesicular amine transporter [G308A] (Rat, UniProt Q01827, G308A)
[9] = target: Synaptic vesicular amine transporter [V132G] (Rat, UniProt Q01827, V132G)
[10] = target: Synaptic vesicular amine transporter [P314G] (Rat, UniProt Q01827, P314G)

- IC50 [1]: 2.5 nM
- IC50 [2]: 2 nM
- IC50 [3]: 3.7 nM
- IC50 [4]: > 50 nM
- IC50 [5]: 4.3 nM
- IC50 [6]: 4.9 nM
- IC50 [7]: 1.3 nM
- IC50 [8]: 4.5 nM
- IC50 [9]: > 100 nM
- IC50 [10]: 3.8 nM
SMILES: COC(=O)[C@H]1[C@H]2C[C@@H]3c4[nH]c5cc(OC)ccc5c4CCN3C[C@H]2C[C@@H](OC(=O)c2cc(OC)c(OC)c(OC)c2)[C@@H]1OC [Apoplon]
